The values below come from ChEMBL document CHEMBL1148707, “Inhibition of the bacterial heme oxygenases from Pseudomonas aeruginosa and Neisseria meningitidis: novel antimicrobial targets” (J Med Chem, 2007).

Active and inactive are the calls of the source. No cut-off for these calls is given here.

The subject of the experiment is Pseudomonas aeruginosa. Description: Growth inhibition of Pseudomonas aeruginosa MPA01 at <250 uM. The class given is functional, organism-based. The procedure, abridged: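 MPA01 grown 8 h at 37 °C, then diluted to OD600 0.05 in iron-restricted succinate minimal medium pH 7.0 with heme as iron source. Compound added from DMSO at 10-1500 µM. Incubated 10 h at 37 °C with aeration in 96-well format, then OD600 read.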

In the case of `NCc1ccc([N+](=O)[O-])cc1[N+](=O)[O-]`, the outcome was inactive.
